Measured values published in US6388175B1, “Control of leaf scald disease” (priority 1995, dated 2002).

System: E. coli

Question: Which Minimum inhibitory concentration does the source give for albicidin here?
Answer: The Minimum inhibitory concentration was 0.05 µg/mL.
